## Share of PSTVd loop 6 variants by leaf site

Data from the supplement of Wu et al. 2024, doi:10.1371/journal.ppat.1012142.

Region: loop 6 of PSTVd (intermediate strain), upper and lower strand joined, each 5' to 3', the first 5 letters being the upper strand, closing pairs included. Wild type: UGACCGCGAG. Varied positions (N): UNNNCGNNNG.

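A pool of all variants was put on leaves of three Nicotiana benthamiana plants. Samples came from the inoculated region at 5 days, the leaf margin at 10 and upper systemic leaves at 12.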

Numbers give reads per thousand; 0 = not seen among the reads, higher = more abundant.
Each site shows the three plants.
"Pool" is the share in the plasmid pool used as inoculum, on the same scale.
The inoculated region was read from the minus strand, the other sites from the plus strand.
IR is the inoculated region, LM the leaf margin, Sys the systemic leaves.
Sequences that differ at fixed positions probably stem from PCR or sequencing errors, and defective variants can be carried along by functional ones.
With 36,220-57,551 reads a sample, very low values are single reads.
For reference, wild type rose from 20.7 per thousand in the pool to 195, 198, 203 (inoculated region), 629, 591, 734 (leaf margin) and 942, 870, 868 (systemic leaves).

- UCUUCUGCAG (pool 0.0131) -> IR 0 / 0 / 0; LM 0 / 0 / 0; Sys 0 / 0 / 0
- UGACAGGUGG (pool 0.0131) -> IR 0 / 0 / 0; LM 0.0276 / 0.0504 / 0; Sys 0 / 0 / 0
- UACUCGCUAG (pool 0.118) -> IR 0.104 / 0.0898 / 0.111; LM 0.0276 / 0 / 0; Sys 0 / 0 / 0
- UCUUCGAGAG (pool 0.209) -> IR 0.0869 / 0.126 / 0.0738; LM 0.0276 / 0.530 / 0; Sys 0 / 0 / 0
- UGUGCGGGAG (pool 0.157) -> IR 0.782 / 0.701 / 0.424; LM 0.110 / 0.227 / 0.0464; Sys 0.0180 / 0.0606 / 0.0820
- UGCGCGCCUG (pool 0.248) -> IR 0.191 / 0.0539 / 0.0553; LM 0 / 0 / 0; Sys 0 / 0 / 0
- UACACGGCAG (pool 0.222) -> IR 0.139 / 0.0898 / 0.0553; LM 0 / 0 / 0; Sys 0 / 0 / 0
- UCGACGCACG (pool 0.209) -> IR 0.104 / 0.0898 / 0.129; LM 0 / 0 / 0; Sys 0 / 0 / 0
- UACCCGUCAG (pool 0.288) -> IR 0.869 / 0.736 / 0.350; LM 0.110 / 0.151 / 0.162; Sys 0 / 0 / 0
- UUCACGGCGG (pool 0.275) -> IR 0.122 / 0.0719 / 0.0553; LM 0.0276 / 0 / 0; Sys 0 / 0 / 0
- UACCCGCCCG (pool 0.183) -> IR 0.0348 / 0.0539 / 0.0184; LM 0 / 0 / 0; Sys 0 / 0 / 0
- UGAGCGGAAG (pool 0.157) -> IR 0.747 / 0.701 / 0.424; LM 0.0552 / 0.126 / 0.139; Sys 0 / 0 / 0.0410
- UAUUCGCAUG (pool 0.209) -> IR 0.0521 / 0.144 / 0.0738; LM 0 / 0 / 0; Sys 0 / 0 / 0
- UACUCGAUGG (pool 0.301) -> IR 0.104 / 0.0539 / 0.0184; LM 0 / 0 / 0; Sys 0 / 0 / 0
- UCUCCGUUAG (pool 0.379) -> IR 0.0869 / 0.0898 / 0.0184; LM 0 / 0 / 0; Sys 0 / 0 / 0
- UGCACGCGAG (pool 0.261) -> IR 0.295 / 0.0898 / 0.221; LM 0.276 / 0.151 / 0.0232; Sys 0.0180 / 0 / 0.0820
- UCUGCGCGUG (pool 0.261) -> IR 0.139 / 0.0719 / 0.0184; LM 0.0276 / 0 / 0; Sys 0 / 0 / 0
- UGGACGUACG (pool 0.235) -> IR 0.139 / 0.0719 / 0.0738; LM 0 / 0 / 0; Sys 0 / 0 / 0
- UUCGCGGCGG (pool 0.222) -> IR 0.0869 / 0.0539 / 0.0369; LM 0.0276 / 0 / 0; Sys 0 / 0.0202 / 0
- UGGACGUAGG (pool 0.157) -> IR 0.156 / 0.0719 / 0.0369; LM 0.0276 / 0 / 0; Sys 0 / 0 / 0
- UUCCCGCGAG (pool 0.196) -> IR 0.243 / 0.251 / 0.295; LM 0.773 / 0.757 / 0.0232; Sys 0 / 0.0202 / 0.0820
- UACACGAAAG (pool 0.118) -> IR 0.556 / 0.701 / 0.682; LM 0.0828 / 0.177 / 0.116; Sys 0 / 0 / 0
- UCUGCGCCAG (pool 0.288) -> IR 0.0521 / 0.108 / 0.0922; LM 0.0276 / 0 / 0; Sys 0 / 0 / 0
- UCACCGUGGG (pool 0.131) -> IR 0.139 / 0.108 / 0.111; LM 0 / 0 / 0.0696; Sys 0 / 0 / 0
- UUCACGUGCG (pool 0.340) -> IR 0.139 / 0.108 / 0.0553; LM 0 / 0 / 0; Sys 0 / 0 / 0
- UGCCCGCGCG (pool 0.0915) -> IR 0.209 / 0.0359 / 0.111; LM 0.0276 / 0 / 0.0232; Sys 0 / 0 / 0
- UGCUCGAGGG (pool 0.222) -> IR 0.0869 / 0.144 / 0.0553; LM 0 / 0 / 0; Sys 0 / 0 / 0

A selection of 3 entries from above:

| sequence | pool | IR | LM | Sys |
|---|---|---|---|---|
| UACACGGCAG | 0.222 | 0.139 / 0.0898 / 0.0553 | 0 / 0 / 0 | 0 / 0 / 0 |
| UACCCGUCAG | 0.288 | 0.869 / 0.736 / 0.350 | 0.110 / 0.151 / 0.162 | 0 / 0 / 0 |
| UCUUCUGCAG | 0.0131 | 0 / 0 / 0 | 0 / 0 / 0 | 0 / 0 / 0 |